PubChem BioAssay AID1224833 – University of Georgia, 2016
Assay: 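Human genes whose knock-down alters rotavirus replication in monkey cells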 (primary screen). Cell system: monkey MA104 kidney cells. Reagents: siRNA pool against human genes, 50 nM. Duration: 48 h knock-down before infection; read 24 h after infection. Challenge: infection with rotavirus strain RV3 two days after transfection; infectious dose for this stage not given. Measured: 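Rotavirus antigen per well by fluorescent immunoassay, normalised to non-targeting control wells on each plate and given as a standard z-score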. Scale: z-score vs non-targeting control: higher = more rotavirus replication than with non-targeting control. Active means: In these data the active calls have z-score vs non-targeting control at about -1 or lower, or at about 1 or higher. Meaning of the calls: active = z-score beyond 1 either way; inactive = z-score within 1 of zero.
This is one part, drawn at random, of about 12,000 deposited reagents. About 5,600 of all reagents (46%) were called active. 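Active calls cover z-scores past 1 in both directions, so they include lowered as well as raised rotavirus replication.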

{"target": "SIRT7 (GeneID 51547)", "z-score vs non-targeting control": -0.517, "Outcome": "inactive"}
{"target": "OR5AU1 (GeneID 390445)", "z-score vs non-targeting control": 0.31, "Outcome": "inactive"}
{"target": "OSGEP (GeneID 55644)", "z-score vs non-targeting control": -1.4, "Outcome": "active"}
{"target": "CALML5 (GeneID 51806)", "z-score vs non-targeting control": -0.673, "Outcome": "inactive"}
{"target": "SCD5 (GeneID 79966)", "z-score vs non-targeting control": -1.96, "Outcome": "active"}
{"target": "H1-3 (GeneID 3007)", "z-score vs non-targeting control": -0.54, "Outcome": "inactive"}
{"target": "TSKU (GeneID 25987)", "z-score vs non-targeting control": -0.602, "Outcome": "inactive"}
{"target": "GGCX (GeneID 2677)", "z-score vs non-targeting control": 0.764, "Outcome": "inactive"}
{"target": "TMEM63C (GeneID 57156)", "z-score vs non-targeting control": 1.73, "Outcome": "active"}
{"target": "OR2K2 (GeneID 26248)", "z-score vs non-targeting control": -0.629, "Outcome": "inactive"}
{"target": "ANKRD30A (GeneID 91074)", "z-score vs non-targeting control": -1.48, "Outcome": "active"}
{"target": "HMGN5 (GeneID 79366)", "z-score vs non-targeting control": -0.582, "Outcome": "inactive"}
{"target": "HAUS1 (GeneID 115106)", "z-score vs non-targeting control": 0.422, "Outcome": "inactive"}
{"target": "GPSM2 (GeneID 29899)", "z-score vs non-targeting control": -0.55, "Outcome": "inactive"}
{"target": "TRERF1 (GeneID 55809)", "z-score vs non-targeting control": -1.54, "Outcome": "active"}
{"target": "CERS6 (GeneID 253782)", "z-score vs non-targeting control": 1.56, "Outcome": "active"}
{"target": "OR2T35 (GeneID 403244)", "z-score vs non-targeting control": -2.27, "Outcome": "active"}
{"target": "CLIC2 (GeneID 1193)", "z-score vs non-targeting control": 1.55, "Outcome": "active"}
{"target": "LRRC4C (GeneID 57689)", "z-score vs non-targeting control": 0.866, "Outcome": "inactive"}
{"target": "H4C2 (GeneID 8366)", "z-score vs non-targeting control": 1.01, "Outcome": "active"}
{"target": "TPSG1 (GeneID 25823)", "z-score vs non-targeting control": 1.06, "Outcome": "active"}
{"target": "C5AR2 (GeneID 27202)", "z-score vs non-targeting control": 2.37, "Outcome": "active"}
{"target": "GAPT (GeneID 202309)", "z-score vs non-targeting control": 2.19, "Outcome": "active"}
{"target": "FAM174A (GeneID 345757)", "z-score vs non-targeting control": -0.778, "Outcome": "inactive"}
{"target": "ADM (GeneID 133)", "z-score vs non-targeting control": -0.529, "Outcome": "inactive"}
{"target": "LENEP (GeneID 55891)", "z-score vs non-targeting control": -2.08, "Outcome": "active"}
{"target": "ELOVL5 (GeneID 60481)", "z-score vs non-targeting control": -0.729, "Outcome": "inactive"}
{"target": "TBXAS1 (GeneID 6916)", "z-score vs non-targeting control": -0.547, "Outcome": "inactive"}
{"target": "SHOC2 (GeneID 8036)", "z-score vs non-targeting control": -0.716, "Outcome": "inactive"}

Reformatted: results already given
target	z-score vs non-targeting control	Outcome
HAUS1 (GeneID 115106)	0.422	inactive
GPSM2 (GeneID 29899)	-0.55	inactive
TRERF1 (GeneID 55809)	-1.54	active
CERS6 (GeneID 253782)	1.56	active
OR2T35 (GeneID 403244)	-2.27	active
CLIC2 (GeneID 1193)	1.55	active
LRRC4C (GeneID 57689)	0.866	inactive

Next results follow.
{"target": "KLHL28 (GeneID 54813)", "z-score vs non-targeting control": 0.497, "Outcome": "inactive"}
{"target": "RGCC (GeneID 28984)", "z-score vs non-targeting control": 1.1, "Outcome": "active"}
{"target": "PCDHB7 (GeneID 56129)", "z-score vs non-targeting control": -0.846, "Outcome": "inactive"}
{"target": "ZFP42 (GeneID 132625)", "z-score vs non-targeting control": -1.92, "Outcome": "active"}
{"target": "TMEM31 (GeneID 203562)", "z-score vs non-targeting control": -0.159, "Outcome": "inactive"}
{"target": "TRIML2 (GeneID 205860)", "z-score vs non-targeting control": -0.946, "Outcome": "inactive"}
{"target": "SPINK1 (GeneID 6690)", "z-score vs non-targeting control": -1.63, "Outcome": "active"}
{"target": "SIRT1 (GeneID 23411)", "z-score vs non-targeting control": 1.12, "Outcome": "active"}
{"target": "COL1A2 (GeneID 1278)", "z-score vs non-targeting control": 0.668, "Outcome": "inactive"}
{"target": "TMEM161B (GeneID 153396)", "z-score vs non-targeting control": -1.3, "Outcome": "active"}
{"target": "AQP5 (GeneID 362)", "z-score vs non-targeting control": -1.54, "Outcome": "active"}
{"target": "C10orf95 (GeneID 79946)", "z-score vs non-targeting control": 1.44, "Outcome": "active"}
{"target": "TTC31 (GeneID 64427)", "z-score vs non-targeting control": 1.41, "Outcome": "active"}
{"target": "VANGL2 (GeneID 57216)", "z-score vs non-targeting control": 1.61, "Outcome": "active"}
{"target": "ATG16L1 (GeneID 55054)", "z-score vs non-targeting control": -1.37, "Outcome": "active"}
{"target": "COLGALT2 (GeneID 23127)", "z-score vs non-targeting control": 0.0454, "Outcome": "inactive"}
{"target": "GSPT2 (GeneID 23708)", "z-score vs non-targeting control": -1.34, "Outcome": "active"}
{"target": "ITGBL1 (GeneID 9358)", "z-score vs non-targeting control": -1.43, "Outcome": "active"}
{"target": "SLC25A30 (GeneID 253512)", "z-score vs non-targeting control": -2.6, "Outcome": "active"}
{"target": "C3orf38 (GeneID 285237)", "z-score vs non-targeting control": 1.73, "Outcome": "active"}
{"target": "KRT15 (GeneID 3866)", "z-score vs non-targeting control": 0.165, "Outcome": "inactive"}
{"target": "FLVCR2 (GeneID 55640)", "z-score vs non-targeting control": -1.23, "Outcome": "active"}
{"target": "MRPL41 (GeneID 64975)", "z-score vs non-targeting control": 1.22, "Outcome": "active"}
{"target": "TTLL5 (GeneID 23093)", "z-score vs non-targeting control": 0.571, "Outcome": "inactive"}
{"target": "PDE12 (GeneID 201626)", "z-score vs non-targeting control": 0.809, "Outcome": "inactive"}
{"target": "TMX2 (GeneID 51075)", "z-score vs non-targeting control": 0.923, "Outcome": "inactive"}
{"target": "RAMP3 (GeneID 10268)", "z-score vs non-targeting control": -0.279, "Outcome": "inactive"}
{"target": "MTUS1 (GeneID 57509)", "z-score vs non-targeting control": -2.1, "Outcome": "active"}
{"target": "FXR2 (GeneID 9513)", "z-score vs non-targeting control": 0.491, "Outcome": "inactive"}
{"target": "SLC7A10 (GeneID 56301)", "z-score vs non-targeting control": 1.05, "Outcome": "active"}
{"target": "PAM16 (GeneID 51025)", "z-score vs non-targeting control": -1.19, "Outcome": "active"}
